Laboratory results: PubChem BioAssay AID1259414 (Drosophila RNAi Screening Center, 2018)
The deposit covers about 24,000 reagents; shown is a random part of those that have a named target and a result. Over the whole deposit, about 1,210 (5%) got an active call. 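Inactive calls also include excluded dsRNAs with several or no targets, genes unexpressed in JW18, and well A1, regardless of score.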 Entries without a mark were called inactive. A plus sign joins genes that one reagent is predicted to hit.

Aim: 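Genome-wide screen for host control of endosymbiont load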 (primary screen)
Cells: Drosophila JW18 cells infected with Wolbachia
Reagents: long dsRNA against Drosophila genes, 0.25 µg dsRNA per well of a 384-well plate
Time to read-out: 5 days
Treatment: cells persistently infected with Wolbachia before knock-down; no added drug
Detection: 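Automated imaging of bacterial rRNA staining divided by host cell count, reported as plate-normalised robust z-score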
Reading the numbers: Wolbachia per cell robust z: higher = more Wolbachia per host cell than the plate typical
Rule for the call: 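Hit when robust z is 1.5 or more, or -1.5 or less, in at least two of three replicates; excludes dsRNAs with several or no targets, genes not expressed in JW18 and well A1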

nenya (GeneID 318572) [DRSC13838] — Wolbachia per cell robust z, rep 1: -0.329; Wolbachia per cell robust z, rep 2: -4.77; Wolbachia per cell robust z, rep 3: -0.62
tsg (GeneID 32160) [DRSC20380] — Wolbachia per cell robust z, rep 1: -1.1; Wolbachia per cell robust z, rep 2: -0.513; Wolbachia per cell robust z, rep 3: -0.809
tsg (GeneID 32160) [DRSC25436] — Wolbachia per cell robust z, rep 1: 0.155; Wolbachia per cell robust z, rep 2: 1.83; Wolbachia per cell robust z, rep 3: 1.59
Abcd3 (GeneID 32992) [DRSC19488] — Wolbachia per cell robust z, rep 1: -1.33; Wolbachia per cell robust z, rep 2: -1.17; Wolbachia per cell robust z, rep 3: -2.16
Abcd3 (GeneID 32992) [DRSC29341] — Wolbachia per cell robust z, rep 1: 0.717; Wolbachia per cell robust z, rep 2: -5.3; Wolbachia per cell robust z, rep 3: 1.32
CG3700 + MED23 [DRSC24669] — Wolbachia per cell robust z, rep 1: -0.544; Wolbachia per cell robust z, rep 2: -2.44; Wolbachia per cell robust z, rep 3: -0.354
CG3700 + MED23 [DRSC25453] — Wolbachia per cell robust z, rep 1: 0.797; Wolbachia per cell robust z, rep 2: 0.781; Wolbachia per cell robust z, rep 3: -0.136
jhamt (GeneID 34977) [DRSC01985] — Wolbachia per cell robust z, rep 1: -0.048; Wolbachia per cell robust z, rep 2: -0.847; Wolbachia per cell robust z, rep 3: -1.17
Nep6 (GeneID 32234) [DRSC19877] — Wolbachia per cell robust z, rep 1: -0.0825; Wolbachia per cell robust z, rep 2: -0.0333; Wolbachia per cell robust z, rep 3: 2.36
orion (GeneID 31712) [DRSC18213] — Wolbachia per cell robust z, rep 1: -3.6; Wolbachia per cell robust z, rep 2: 0.855; Wolbachia per cell robust z, rep 3: 1.05
orion (GeneID 31712) [DRSC18214] — Wolbachia per cell robust z, rep 1: 0.0467; Wolbachia per cell robust z, rep 2: 0.723; Wolbachia per cell robust z, rep 3: 0.714
dcma (GeneID 5740672) [DRSC00246] — Wolbachia per cell robust z, rep 1: 0.673; Wolbachia per cell robust z, rep 2: 2.61; Wolbachia per cell robust z, rep 3: 0.242
dcma (GeneID 5740672) [DRSC00338] — Wolbachia per cell robust z, rep 1: 0.258; Wolbachia per cell robust z, rep 2: -0.456; Wolbachia per cell robust z, rep 3: -0.0809
Trmt112 (GeneID 40343) [DRSC11685] — Wolbachia per cell robust z, rep 1: 1.03; Wolbachia per cell robust z, rep 2: 0.302; Wolbachia per cell robust z, rep 3: -1.07
CtsK2 (GeneID 36973) [DRSC06897] — Wolbachia per cell robust z, rep 1: -0.0195; Wolbachia per cell robust z, rep 2: 0.911; Wolbachia per cell robust z, rep 3: 0.496
CtsK2 (GeneID 36973) [DRSC25927] — Wolbachia per cell robust z, rep 1: -1.57; Wolbachia per cell robust z, rep 2: 2.15; Wolbachia per cell robust z, rep 3: 0.0834
Grl58a (GeneID 37509) [DRSC04145] — Wolbachia per cell robust z, rep 1: -0.149; Wolbachia per cell robust z, rep 2: 1.08; Wolbachia per cell robust z, rep 3: 0.188
OXA1L (GeneID 39222) [DRSC09672] — Wolbachia per cell robust z, rep 1: 1.32; Wolbachia per cell robust z, rep 2: 1.29; Wolbachia per cell robust z, rep 3: 1.08
OXA1L (GeneID 39222) [DRSC29571] — Wolbachia per cell robust z, rep 1: 0.312; Wolbachia per cell robust z, rep 2: -0.594; Wolbachia per cell robust z, rep 3: 0.294
CG1092 (GeneID 40538) [DRSC12151] — Wolbachia per cell robust z, rep 1: 0.141; Wolbachia per cell robust z, rep 2: -1.88; Wolbachia per cell robust z, rep 3: -0.0694
CG1092 (GeneID 40538) [DRSC24479] — Wolbachia per cell robust z, rep 1: -0.683; Wolbachia per cell robust z, rep 2: -1.85; Wolbachia per cell robust z, rep 3: 0.036
Rrp42 (GeneID 36766) [DRSC07161] — Wolbachia per cell robust z, rep 1: 0.905; Wolbachia per cell robust z, rep 2: 0.6; Wolbachia per cell robust z, rep 3: 0.796
Khc (GeneID 36810) [DRSC07448] — Wolbachia per cell robust z, rep 1: -1.32; Wolbachia per cell robust z, rep 2: 0.724; Wolbachia per cell robust z, rep 3: -2.04
Khc (GeneID 36810) [DRSC24335] — Wolbachia per cell robust z, rep 1: -0.693; Wolbachia per cell robust z, rep 2: 0.599; Wolbachia per cell robust z, rep 3: 0.86
Syn2 (GeneID 36848) [DRSC06902] — Wolbachia per cell robust z, rep 1: -4.67 (active); Wolbachia per cell robust z, rep 2: -0.67; Wolbachia per cell robust z, rep 3: -2.27
Cpr65Az (GeneID 38712) [DRSC09882] — Wolbachia per cell robust z, rep 1: 0.019; Wolbachia per cell robust z, rep 2: 0.481; Wolbachia per cell robust z, rep 3: 0.721
Cpr65Az (GeneID 38712) [DRSC22057] — Wolbachia per cell robust z, rep 1: 0.681; Wolbachia per cell robust z, rep 2: 0.652; Wolbachia per cell robust z, rep 3: -0.689
Cpr65Az (GeneID 38712) [DRSC23964] — Wolbachia per cell robust z, rep 1: -6.46; Wolbachia per cell robust z, rep 2: -8.5; Wolbachia per cell robust z, rep 3: 0.00449
CG34201 (GeneID 5740368) [DRSC38628] — Wolbachia per cell robust z, rep 1: -0.902; Wolbachia per cell robust z, rep 2: -0.533; Wolbachia per cell robust z, rep 3: -1.26
red (GeneID 41738) [DRSC23177] — Wolbachia per cell robust z, rep 1: 0.535; Wolbachia per cell robust z, rep 2: 1.18; Wolbachia per cell robust z, rep 3: 2.4

4 neighbouring reagents from above:
Abcd3 (GeneID 32992) [DRSC19488] — Wolbachia per cell robust z, rep 1: -1.33; Wolbachia per cell robust z, rep 2: -1.17; Wolbachia per cell robust z, rep 3: -2.16
Abcd3 (GeneID 32992) [DRSC29341] — Wolbachia per cell robust z, rep 1: 0.717; Wolbachia per cell robust z, rep 2: -5.3; Wolbachia per cell robust z, rep 3: 1.32
CG3700 + MED23 [DRSC24669] — Wolbachia per cell robust z, rep 1: -0.544; Wolbachia per cell robust z, rep 2: -2.44; Wolbachia per cell robust z, rep 3: -0.354
CG3700 + MED23 [DRSC25453] — Wolbachia per cell robust z, rep 1: 0.797; Wolbachia per cell robust z, rep 2: 0.781; Wolbachia per cell robust z, rep 3: -0.136
